A mixed list of measured activities; the numbers were collected in NIAID ChemDB.

Common to all: growth or infection tests

Neighbouring rows are from separate reports. An empty or dashed field is not shown. MIC50, MIC90 and the like: level of inhibition, or share of isolates inhibited.

| compound | organism | strain | read by | setting | measure | result |
|---|---|---|---|---|---|---|
| COc1c(N2CCNCC2)c(F)cc2c(=O)c(C(=O)O)cn(C3CC3)c12 | Mycobacterium smegmatis | KD1995 (GYRA D95H) | - | - | MIC99 | 0.57 µg/mL |
| CC[C@@H](CO)NCCN[C@@H](CC)CO | Mycobacterium avium complex | 155-4 | - | - | MIC | 3.8 µg/mL |
| COc1ccc(Cn2cc(/C=N/Nc3nncs3)c3ccccc32)cc1 | Mycobacterium bovis BCG | 1173P2 | broth dilution | 48 h | MIC100 | 3.91 µg/mL |
| O=C(O)c1cn(C2CC2)c2c(F)c(N3CCNCC3)c(F)cc2c1=O | Mycobacterium smegmatis | KD1995 (GYRA D95H) | - | - | MIC99 | 1.1 µg/mL |
| COc1cc(Cc2cnc(N)nc2N)cc(OC)c1OCCCNc1ccc(S(=O)(=O)c2ccc(N)cc2)cc1 | Mycobacterium ulcerans | Isolate 5143 | - | - | MIC | 1 µg/mL |
| CN(C)c1cc(NC(=O)CNC(C)(C)C)c(O)c2c1C[C@H]1C[C@H]3[C@H](N(C)C)C(=O)C(C(N)=O)=C(O)[C@@]3(O)C(=O)C1=C2O | Mycobacterium massiliense | X16 | broth dilution | - | MIC | 1 µg/mL |
| CO[C@H]1/C=C/O[C@@]2(C)Oc3c(C)c(O)c4c(O)c(c5c(c4c3C2=O)NC2(CCN(CC(C)C)CC2)N=5)=NC(=O)/C(C)=C\C=C\[C@H](C)[C@H](O)[C@@H](C)[C@@H](O)[C@@H](C)[C@H](OC(C)=O)[C@@H]1C | Mycobacterium avium | 211-5 | - | - | MBC | 4 µg/mL |
| CN(C)[C@@H]1C(=O)C(C(N)=O)=C(O)[C@@]2(O)C(=O)C3=C(O)c4c(O)cccc4[C@@](C)(O)[C@H]3C[C@@H]12 | Mycobacterium chelonae | - | broth dilution | - | MIC50 | >128 µg/mL |
| O=S(=O)(c1ccccc1)n1cc(/C=N/Nc2nncs2)c2ccccc21 | Mycobacterium bovis BCG | 1173P2 | broth dilution | 24 h | MIC100 | 250 µg/mL |
| CC1CN(c2cc3c(cc2F)c(=O)c(C(=O)O)cn3C2CC2)CCN1 | Mycobacterium smegmatis | KD1991 (GYRA D95Y) | - | - | MIC99 | 2.6 µg/mL |
| Cc1ccc(Cn2cc(/C=N/Nc3nncs3)c3ccccc32)cc1 | Mycobacterium bovis BCG | 1173P2 | broth dilution | 24 h | MIC100 | 62.5 µg/mL |
| CCC1CN(c2cc3c(cc2F)c(=O)c(C(=O)O)cn3C2CC2)CCN1 | Mycobacterium smegmatis | KD1987 (GYRA A91V) | - | - | MIC99 | 1.2 µg/mL |
| COc1cc(Cc2cnc(N)nc2N)cc(OC)c1Br | Mycobacterium ulcerans | Isolate 842 | - | - | MIC | 4 µg/mL |
| Fc1cccc(Cn2cc(/C=N/Nc3nncs3)c3ccccc32)c1 | Mycobacterium bovis BCG | 1173P2 | broth dilution | 48 h | MIC100 | 500 µg/mL |
| CC1CN(c2cc3c(cc2F)c(=O)c(C(=O)O)cn3C2CC2)CC(C)N1 | Mycobacterium smegmatis | KD1990 (GYRA D95A) | - | - | MIC99 | 0.96 µg/mL |

2 of the rows above, restated:

compound,organism,strain,read by,setting,measure,result
CN(C)c1cc(NC(=O)CNC(C)(C)C)c(O)c2c1C[C@H]1C[C@H]3[C@H](N(C)C)C(=O)C(C(N)=O)=C(O)[C@@]3(O)C(=O)C1=C2O,Mycobacterium massiliense,X16,broth dilution,-,MIC,1 µg/mL
CN(C)[C@@H]1C(=O)C(C(N)=O)=C(O)[C@@]2(O)C(=O)C3=C(O)c4c(O)cccc4[C@@](C)(O)[C@H]3C[C@@H]12,Mycobacterium chelonae,-,broth dilution,-,MIC50,>128 µg/mL